SMILES strings stand for the structures. pIC50: −log10 of the molar value. Where two headings read alike, the source gives them in different places. Where only a bound is given, the exact number is not on record here.

Protein sequences, listed by entry. Tags and fused reporters are not part of them. Lines headed by an entry give the natural chain unless they say otherwise; changes in a name come on top. Residues count along the entry.
UniProt P36544, 23-502 limits assumed: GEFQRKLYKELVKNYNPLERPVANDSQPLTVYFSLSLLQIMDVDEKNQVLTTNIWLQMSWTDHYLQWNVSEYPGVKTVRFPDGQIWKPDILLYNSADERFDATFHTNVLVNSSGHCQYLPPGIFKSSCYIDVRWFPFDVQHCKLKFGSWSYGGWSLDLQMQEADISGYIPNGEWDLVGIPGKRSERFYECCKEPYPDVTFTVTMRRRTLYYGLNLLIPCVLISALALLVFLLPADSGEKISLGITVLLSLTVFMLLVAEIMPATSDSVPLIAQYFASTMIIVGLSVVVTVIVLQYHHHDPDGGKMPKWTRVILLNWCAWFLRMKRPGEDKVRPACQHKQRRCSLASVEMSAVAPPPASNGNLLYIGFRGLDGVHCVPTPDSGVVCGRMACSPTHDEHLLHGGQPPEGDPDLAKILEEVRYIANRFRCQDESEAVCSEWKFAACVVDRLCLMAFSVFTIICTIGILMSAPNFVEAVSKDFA
UniProt P02710: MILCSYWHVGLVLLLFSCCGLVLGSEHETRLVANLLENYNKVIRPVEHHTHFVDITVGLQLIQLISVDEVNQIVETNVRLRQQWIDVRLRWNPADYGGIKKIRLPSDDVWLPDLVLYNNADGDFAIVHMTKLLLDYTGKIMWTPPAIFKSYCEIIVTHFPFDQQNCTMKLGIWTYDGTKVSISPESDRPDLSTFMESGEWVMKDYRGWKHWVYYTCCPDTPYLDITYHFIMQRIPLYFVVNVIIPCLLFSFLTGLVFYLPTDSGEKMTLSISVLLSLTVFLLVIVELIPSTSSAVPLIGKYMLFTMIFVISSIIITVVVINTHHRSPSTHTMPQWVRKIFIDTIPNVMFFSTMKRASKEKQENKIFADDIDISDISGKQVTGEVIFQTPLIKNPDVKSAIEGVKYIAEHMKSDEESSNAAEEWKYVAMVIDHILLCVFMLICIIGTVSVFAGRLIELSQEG
UniProt P02714: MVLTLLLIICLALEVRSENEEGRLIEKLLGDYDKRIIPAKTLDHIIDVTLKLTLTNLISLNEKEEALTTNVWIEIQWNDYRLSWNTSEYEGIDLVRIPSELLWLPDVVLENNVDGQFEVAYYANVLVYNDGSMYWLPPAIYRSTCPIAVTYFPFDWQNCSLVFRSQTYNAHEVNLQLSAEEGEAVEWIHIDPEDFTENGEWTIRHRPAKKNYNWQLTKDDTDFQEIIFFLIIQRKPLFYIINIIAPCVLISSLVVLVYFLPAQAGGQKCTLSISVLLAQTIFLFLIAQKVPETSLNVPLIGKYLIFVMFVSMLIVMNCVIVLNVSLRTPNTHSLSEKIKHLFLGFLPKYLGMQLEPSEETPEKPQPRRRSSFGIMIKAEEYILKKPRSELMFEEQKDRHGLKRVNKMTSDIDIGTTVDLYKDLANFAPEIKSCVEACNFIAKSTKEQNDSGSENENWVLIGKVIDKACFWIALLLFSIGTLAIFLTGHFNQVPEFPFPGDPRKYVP
UniProt P02718: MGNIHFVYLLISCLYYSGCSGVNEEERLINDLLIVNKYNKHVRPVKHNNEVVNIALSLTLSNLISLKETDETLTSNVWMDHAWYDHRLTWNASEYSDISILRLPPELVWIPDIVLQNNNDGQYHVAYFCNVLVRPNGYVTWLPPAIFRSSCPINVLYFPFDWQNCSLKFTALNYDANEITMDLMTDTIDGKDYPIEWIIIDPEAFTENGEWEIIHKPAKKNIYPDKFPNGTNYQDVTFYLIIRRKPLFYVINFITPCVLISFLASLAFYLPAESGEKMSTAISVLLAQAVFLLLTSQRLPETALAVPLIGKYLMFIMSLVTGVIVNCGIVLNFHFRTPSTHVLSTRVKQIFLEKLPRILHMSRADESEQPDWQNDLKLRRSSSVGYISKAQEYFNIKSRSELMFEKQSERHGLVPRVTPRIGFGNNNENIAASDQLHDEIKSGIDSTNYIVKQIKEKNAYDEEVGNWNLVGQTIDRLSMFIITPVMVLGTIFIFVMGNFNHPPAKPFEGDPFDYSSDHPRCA

Consider 1 molecule from article PMC10758494 (Frontiers in Pharmacology, 2023).

Test [1] concerns the target human α7 nAChR expressed in GH4C1 cells (Homo sapiens, UniProt P36544). Nature of the test: Competition radioligand assay with 125I-labeled α-bungarotoxin, GH4C1 cells. Particulars: compound 50 μM.
Test [2] has as its target muscle-type T. californica nAChR (Tetronarce californica, UniProt P02710+P02714+P02718). In words: Competition radioligand assay with 125I-labeled α-bungarotoxin, T. californica membranes. Particulars: read-out: IC50 ± SEM, competition with 125I-αBgt for binding to T. californica nAChR, T. californica electric organ membranes.

By pIC50 is commonly meant the negative decadic logarithm of the IC50, by convention in mol/L. Consider `N=C(N)NCCC[C@H](N)C(=O)NCCCNCCCNCCCCCNC(=O)[C@H](CC(N)=O)NC(=O)Cc1ccc(O)cc1O` [AgTx-636, argiotoxin-636], for which the “Inhibition of 125I-αBgt binding to human α7 nAChR” value in test [1] is on record as ≤ 20%. For the same molecule, the pIC50 in test [2] and in test [2] (listed as Argiotoxin-636) was 4.82 each time.
